Data published in PMC5783350, “Development of an activity-based probe for acyl-protein thioesterases” (PLoS ONE, 2018).

Tested on: TgPPT1
Assay: Intact parasite labeling, in-gel fluorescence
Assay type: cell-based, Toxoplasma gondii
Conditions: intact wild-type tachyzoites, same probe concentration

Substance: fluorophosphonate rhodamine
- Labeling of TgPPT1 in intact T. gondii tachyzoites: unable to label TgPPT1 in intact parasites
